Assay results as given in patent US5047397A (California Biotechnology Inc., priority 1988, dated 1991).
The same purity stands for every peptide and may come from a single statement. For some assays here: Some peptides are written in HELM: one residue between dots, names in brackets for other building blocks, links after the first $.

What was measured:
Details in all cases: whole synthesis, reversed phase HPLC, scale of the general procedure One gm of resin (0.4 meq/gm), acetate salt
[1] = general procedure: Boc solid-phase peptide synthesis; Boc-Tyr(2BrZ)-O-Resin; N,N'-dicyclohexylcarbodiimide
[2] = general procedure: Boc solid-phase peptide synthesis; Boc-Ile-pMBHA resin; N,N'-dicyclohexylcarbodiimide
[3] = general procedure: Boc solid-phase peptide synthesis; Boc-Ala-pMBHA resin; N,N'-dicyclohexylcarbodiimide

Substance	final HPLC purity [1]	other results
R-S-S-C-F-G-G-R-I-D-R-I-G-A-Q-S-G-C--N-S-F-R-Y	minimum 97% purity	–
RSSCGRIDRIGAQSGCNSFRY	minimum 97% purity	–
PEPTIDE1{[2-NOA].[NH(CH2)4CO].R.I.D.R.I.[am]}$$$$V2.0	–	final HPLC purity [2]: minimum 97% purity
RSSCFGGRIDRIGAQSCNSFRY	minimum 97% purity	–
PEPTIDE1{[2-NA].G.G.R.I.D.R.I.G.A.[am]}$$$$V2.0	–	final HPLC purity [3]: minimum 97% purity
